Pooled drug test results. Numbers come from NIAID ChemDB, via PubChem.

Shared fields: enzyme or target tests; organism: HIV-1; protein: Protease

ICn is the concentration giving n% inhibition. Conditions beyond the fields shown may differ between rows. An empty or dashed field is not shown.

smiles,strain,read by,measure,value
CCCO[C@H]1[C@H](OCc2ccccc2)[C@@H](O)[C@H](Oc2ccccc2)O[C@@H]1CNC(=O)C(NC(C)=O)C(C)C,-,-,IC50,>100 µM
CC(C)(C)OC(=O)N[C@@H](Cc1ccccc1)C(=O)NC[C@H](NC(=O)[C@H](Cc1ccccc1)NC(=O)OC(C)(C)C)C(=O)O,-,HPLC,IC50,>10 µM
COc1ccc(CN[C@H]2C(=O)N[C@@H](Cc3ccccc3)[C@H]2O)cc1,IIIB,-,Ki,>12.5 µM
O=C(N[C@@H](Cc1ccccc1)C(=O)NCC[C@@H](CO)NC(=O)[C@H](Cc1ccccc1)NC(=O)c1cc2ccccc2o1)c1cc2ccccc2o1,-,HPLC,IC50,3 µM
COc1ccc(CN2C(=O)N[C@H](Cc3ccccc3)[C@H](O)[C@H]2CO)cc1,IIIB,-,Ki,>12.5 µM
CCc1c(C)c2c(c(C)c1C1=NC(=O)C(c3cc(-c4c(C)c5c(c(C)c4CC)[C@](C)(O)C[C@@H]5C)[nH]c3O)=C1)[C@H](C)C[C@]2(C)O,-,-,IC50,>10 µM
O/N=C1\CC2(CCN(Cc3ccccc3)CC2)Oc2ccc(F)cc21,-,absorbance,IC50,>10 µM
CC(C)(C)NC(=O)[C@@H]1Cc2ccccc2N1C(=O)[C@@H](O)[C@H](Cc1ccccc1)NC(=O)[C@H](CC(N)=O)NC(=O)OCc1ccccc1,-,-,IC50,>5 µM
O/N=C1\CC2(CCN(Cc3ccccc3)CC2)Oc2ccccc21,-,absorbance,IC50,>10 µM
COc1ccc(CCOC(=O)[C@H]2[C@H](O)[C@H](Cc3ccccc3)N(Cc3ccc(OC)cc3)C(=O)N2Cc2ccc(OC)cc2)cc1,IIIB,-,Ki,>12.5 µM
CC[C@H](C)[C@H](NC(=O)[C@@H](NC(=O)CCCCCCCCCCCCCCC(=O)N[C@@H](CC(N)=O)C(=O)N[C@@H](CCc1ccccc1)C(=O)O)C(C)O)C(=O)N[C@@H](Cc1ccccc1)C(N)=O,-,HPLC,IC50,1.24 µM
CC(=O)NC(C(=O)NC[C@H]1O[C@@H](Oc2ccccc2)[C@H](O)[C@@H](OCc2ccccc2)[C@@H]1OCC(C)C)C(C)C,-,-,IC50,>100 µM
CC(C)[C@H](N)C(=O)N[C@H](C(=O)N[C@@H](Cc1ccccc1)[C@@H](O)C(=O)N(CC(=O)N[C@H](C(=O)N[C@H](C(N)=O)C(C)C)C(C)C)Cc1ccccc1)C(C)C,-,-,IC50,<1000 µM
CC(C)(C)NC(=O)[C@H]1N(C(=O)[C@@H](O)[C@H](Cc2ccccc2)NC(=O)c2ccccc2NC(=O)OCc2ccccc2)CSC1(C)C,-,HPLC,IC50,<5 µM
CCC(C)(C)NC(=O)[C@@H]1CSCN1C(=O)[C@@H](O)[C@H](Cc1ccccc1)NC(=O)[C@H](CS(C)(=O)=O)NC(=O)COc1cccc2ccccc12,-,-,IC50,<0.05 µM
COc1cccc2cc(C(=O)N[C@@H](Cc3ccccc3)[C@H](O)C(=O)N3CSC(C)(C)[C@H]3C(=O)NCc3ccccc3C)oc12,-,HPLC,IC50,<5 µM
CSCC[C@H](NC(=O)CCCCCCCCCCCCCCC(=O)N[C@@H](CC(C)C)C(=O)N[C@@H](CC(C)C)C(=O)N[C@@H](Cc1ccccc1)C(N)=O)C(=O)N[C@@H](Cc1ccccc1)C(=O)O,-,HPLC,IC50,0.65 µM
Cc1ccccc1CNC(=O)[C@H]1N(C(=O)[C@@H](O)[C@H](Cc2ccccc2)NC(=O)c2ccccc2NC(=O)OCc2ccccc2)CSC1(C)C,-,HPLC,IC50,<5 µM
CC(C)(C)c1cc2c(O)c(c1)Cc1cc(C(C)(C)C)cc3c1OCCOc1ccc4ccccc4c1C=NCCNCCN=Cc1c(ccc4ccccc14)OCCOc1c(cc(C(C)(C)C)cc1Cc1cc(C(C)(C)C)cc(c1O)C3)C2,-,FRET / fluorescence,Ki,22 µM
Clc1ccc2c(c1)NCCC1(CCN(Cc3ccccc3)CC1)O2,-,absorbance,IC50,>10 µM
Cc1ccccc1CNC(=O)[C@H]1N(C(=O)[C@@H](O)[C@H](Cc2ccccc2)NC(=O)c2ccccc2C(=O)NCc2ccncc2)CSC1(C)C,-,HPLC,IC50,<5 µM
CC(C)[C@H](NC(=O)[C@H](C)NC(=O)OCc1ccccc1)C(=O)N[C@@H](Cc1ccccc1)[C@@H](O)[C@H](O)[C@H](Cc1ccccc1)NC(=O)[C@@H](NC(=O)[C@H](C)NC(=O)OCc1ccccc1)C(C)C,-,-,IC50,0.004 µM
CCOC(=O)[C@H]1[C@H](O)[C@H](Cc2ccccc2)NC(=O)CN1Cc1ccc(OC)cc1,IIIB,-,Ki,>12.5 µM
CC(C)C[C@H](NC(=O)CCCCCCCCCCCCCCC(=O)N[C@@H](CC(N)=O)C(=O)N[C@@H](CC1CCCCC1)C(=O)O)C(=O)N[C@@H](CC(C)C)C(=O)N[C@@H](Cc1ccccc1)C(N)=O,-,HPLC,IC50,0.54 µM
CCOC(=O)/C=C/[C@@H]1[C@@H](O)[C@@H](Cc2ccccc2)N(Cc2ccc(OC)cc2)C(=O)N1Cc1ccc(OC)cc1,IIIB,-,Ki,>12.5 µM
CC(C)(C)c1cc2c(O)c(c1)Cc1cc(C(C)(C)C)cc3c1OCCOc1ccc4ccccc4c1C=NCCCCN=Cc1c(ccc4ccccc14)OCCOc1c(cc(C(C)(C)C)cc1Cc1cc(C(C)(C)C)cc(c1O)C3)C2,-,FRET / fluorescence,Ki,90 µM
CC(C)C[C@H](NC(=O)CCCCCCCCCCCCCCC(=O)N[C@@H](Cc1ccc(N)cc1)C(=O)N[C@@H](Cc1ccccc1)C(=O)O)C(=O)N[C@@H](CC(C)C)C(=O)N[C@@H](Cc1ccccc1)C(N)=O,-,HPLC,Ki,0.0401 µM
CC(C)(C)NC(=O)[C@H]1N(C(=O)[C@@H](O)[C@H](Cc2ccccc2)NC(=O)c2ccccc2C(=O)NCc2ccccn2)CSC1(C)C,-,HPLC,IC50,>5 µM
CC(C)C[C@H](NC(=O)C(NC(=O)[C@@H](N)C(C)C)c1cc(O)cc(O)c1)C(=O)N[C@H](Cc1ccccc1)C(=O)C(=O)N[C@H](C(=O)N[C@H](C(=O)N[C@@H](CC(=O)O)C(=O)O)C(C)C)C(C)C,-,HPLC,IC50,0.26 µM
CCCCOC(=O)[C@H]1[C@H](O)[C@H](Cc2ccccc2)NC(=O)N1Cc1ccc(OC)cc1,IIIB,-,Ki,>12.5 µM
CC(C)(C)OC(=O)N[C@@H](Cc1ccccc1)C(=O)NCC[C@H](NC(=O)[C@H](Cc1ccccc1)NC(=O)OC(C)(C)C)C(=O)O,-,HPLC,IC50,>10 µM
CC[C@H](C)[C@H](NC(=O)[C@@H](NC(=O)CCCCCCCCCCCCCCC(=O)N[C@@H](CC(N)=O)C(=O)N[C@@H](Cc1ccccc1)C(=O)O)C(C)O)C(=O)N[C@@H](Cc1ccccc1)C(N)=O,-,HPLC,IC50,2.5 µM
CC(C)(CO)NC(=O)[C@@H]1CSCN1C(=O)[C@@H](O)[C@H](Cc1ccccc1)NC(=O)[C@H](CS(C)(=O)=O)NC(=O)COc1cccc2ccccc12,-,-,IC50,<0.05 µM
O=C(N[C@@H](Cc1ccccc1)C(=O)NCC[C@@H](CO)NC(=O)[C@H](Cc1ccccc1)NC(=O)OCc1ccccc1)OCc1ccccc1,-,HPLC,IC50,1.8 µM
CC(O)[C@H](NC(=O)CCCCCCCCCCCCCCC(=O)N[C@@H](CC(N)=O)C(=O)N[C@@H](CC1CCCCC1)C(=O)O)C(=O)N[C@H](C(=O)N[C@@H](Cc1ccccc1)C(N)=O)C1CCCCC1,-,HPLC,IC50,0.58 µM
O=S1(=O)N(Cc2cccc(O)c2)[C@H](Cc2ccccc2)CC(O)C[C@@H](Cc2ccccc2)N1Cc1cccc(O)c1,-,-,Ki,1 µM
CC(C)[C@H](N)C(=O)N[C@H](C(=O)N[C@@H](Cc1ccccc1)[C@H](O)C(=O)N(CC(=O)N[C@H](C(=O)N[C@H](C(N)=O)C(C)C)C(C)C)Cc1ccccc1)C(C)C,-,-,IC50,<1000 µM
CC(C)CN(C[C@@H](O)C[C@@H](Cc1ccccc1)C(=O)N[C@H]1c2ccccc2C[C@H]1O)C(=O)OCc1ccccc1,-,HPLC,IC50,0.0085 µM
Cc1ccc2c(c1)/C(=N/O)CC1(CCN(Cc3ccccc3)CC1)O2,-,absorbance,IC50,>10 µM